Compound potency records, mixed from different reports. Data source: NIAID ChemDB in PubChem.

Shared fields: tests on isolated targets; species: Hepatitis C virus; target: Nonstructural protein 5B; read-out: IC50

Neighbouring rows are from separate reports. ICn: concentration for n% inhibition. Blank or dashed fields: not listed here. a–b is a range or a potency band.

| smiles | strain | read by | value |
|---|---|---|---|
| C[C@@]1(O)[C@H](O)[C@@H](COP(=O)([O-])OP(=O)([O-])OP(=O)([O-])O)O[C@H]1n1cnc2c(N)nc(N)nc21 | WT gt 1b | nucleotide incorporation | 3.6 µM |
| CNC(=O)c1c(-c2ccc(F)cc2)oc2cc(-c3cc(COC)on3)c(OC(C)C)cc12 |  |  | ≤0.5 µM |
| Cc1cc(-c2ccc(C=C3SC(=S)NC3=O)o2)oc1C |  |  | ≤1 µM |
| COc1c(-c2ccc3cc(NS(C)(=O)=O)ccc3c2)cc(-n2ccc(=O)[nH]c2=O)cc1C(C)(C)C | GT 2b#2 | nucleotide incorporation | 16.1 µM |
| O=C(O)c1ccc(N2C(=O)C(=Cc3ccc(-c4cc5ccccc5s4)o3)SC2=S)cc1 |  |  | ≤1 µM |
| COc1ccc(CCC2(C3CCCC3)CC(O)=C(Sc3nnnn3-c3ccc(O)cc3)C(=O)O2)cc1 |  |  | <1 µM |
| CNC(=O)c1c(-c2ccc(F)cc2)oc2cc(C3CCN(S(C)(=O)=O)C3)c(OC)cc12 |  |  | ≤0.5 µM |
| COc1ccc(CCC2(C3CCCC3)CC(O)=C(Sc3n[nH]c(=O)n3C)C(=O)O2)cc1 |  |  | 1–10 µM |
| O=C(O)CCCCCc1ccc(N2C(=O)C(=Cc3ccc(-c4ccc(Cl)c(Cl)c4)o3)SC2=S)cc1 |  |  | ≤1 µM |
| CNC(=O)c1c(-c2ccc(F)cc2)oc2cc(C(C)(C)O)c(C)cc12 |  |  | ≤0.5 µM |
| Cc1ccc(-c2ccc(C=C3SC(=S)N(c4ccc(C(=O)O)cc4)C3=O)o2)s1 |  |  | ≤1 µM |
| CNC(=O)c1c(-c2ccc(F)cc2)oc2cc(C(C)=O)c(OC)cc12 |  |  | ≤0.5 µM |
| O=C1CC(=O)OC(CCc2ccc(OC3CCC3)c(F)c2)(C2CCCC2)C1 |  |  | 1–10 µM |
| Cc1ccc(-c2ccc(C=C3SC(=S)N(c4ccc(C(=O)O)cc4)C3=O)o2)cc1C |  |  | ≤1 µM |
| CCCOc1cc2c(C(=O)NC)c(-c3ccc(F)cc3)oc2cc1NS(C)(=O)=O |  |  | ≤0.5 µM |
| O=C(O)CCN1C(=O)C(=Cc2ccc(-c3ccc(Cl)c(Cl)c3)o2)SC1=S |  |  | ≤1 µM |
| CNC(=O)c1c(-c2ccc(F)cc2F)oc2ccc(OC(C)C)cc12 |  |  | ≤0.5 µM |
| Cc1cc(NS(=O)(=O)c2ccc(C(F)(F)F)cn2)c(C(C)(C)C)c(SC2=C(O)CC(C3CCCC3)(C3CCCC3)OC2=O)c1 |  |  | 10–50 µM |

A second listing of 2 rows from above:

COc1c(-c2ccc3cc(NS(C)(=O)=O)ccc3c2)cc(-n2ccc(=O)[nH]c2=O)cc1C(C)(C)C ; strain: GT 2b#2 ; read by: nucleotide incorporation ; value: 16.1 µM
Cc1ccc(-c2ccc(C=C3SC(=S)N(c4ccc(C(=O)O)cc4)C3=O)o2)s1 ; value: ≤1 µM